Assay results from patent publication US7235366B1 (priority 1993, dated 2007).

Chains of the proteins cited; added tags and fusions are not shown.
UniProt P35372, whole entry: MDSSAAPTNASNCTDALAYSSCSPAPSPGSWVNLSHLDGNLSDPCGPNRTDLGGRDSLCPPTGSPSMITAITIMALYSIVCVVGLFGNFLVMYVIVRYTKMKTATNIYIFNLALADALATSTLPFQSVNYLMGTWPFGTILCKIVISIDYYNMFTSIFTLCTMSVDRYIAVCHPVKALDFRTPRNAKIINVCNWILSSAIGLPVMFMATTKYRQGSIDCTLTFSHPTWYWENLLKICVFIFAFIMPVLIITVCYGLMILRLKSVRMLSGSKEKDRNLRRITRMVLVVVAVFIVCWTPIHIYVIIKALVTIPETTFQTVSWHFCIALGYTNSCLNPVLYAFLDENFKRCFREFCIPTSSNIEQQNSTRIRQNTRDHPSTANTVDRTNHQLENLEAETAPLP

Molecular target: T1, cloned human μ opioid receptor (Homo sapiens, UniProt P35372)
T1 construct: This fragment includes the entire coding region of the human μ opioid receptor; expressed in transfected cells; host or cells: COS-7 (transient, pcDNA3)
Type: binding

For pertussis toxin [PTX], the “Decrease of specific [3H]DAMGO labelling of the human μ receptor” value was 79+/−8%.
